{
  "source": "the supplement of paper PMC9931576",
  "binders": {"B1": {"name": "CV07-262 (protein)", "chain 1": "QVQLVQSGAEVKKPGASVKVSCKASGYTFTGYYMHWVRQAPGQGLEWMGWINPNSGGTNYAQTFQGRVTMTRDTSITTTYMELSRLRSDDTAVYYCARVGWYDFGTPGDYYYYYGMDVWGQGTTVTVSS", "chain 2": "QSALTQPASVSGSPGQSITISCTGTSSDVGSYNLVSWYQQHPGKAPKLMIYEGSKRPSGVSNRFSGSKSGNTASLTISGLQAEDEADYFCCSYAGTSTFVFGTGTKVTVL"}, "B2": {"name": "BD56-951 (protein)", "chain 1": "QVQLVQSGAEVKVPGSSVKVSCKASGGTFSSYSITWVRQAPGQGLEWMGRIIPILGIANYAQRFEGKVTITADKSTSTAYMELSSLKSEDTAVYYCARERGYTSGSGSAWYLDLWGRGTLVTLSS", "chain 2": "QSVLTQPPSVSGAPGQRVTISCTGSNSNIGAGYDVHWYQQLPGTAPKLLIYRNTNRPSGVPDRFFGSRSGTSASLAITGLQAEDEADYYCQSYDSSLSAVVFGGGTKLTVL"}, "B3": {"name": "BD56-965 (protein)", "chain 1": "EVQLVESGGGLVKPGGSLRLSCAASGFMFSSYSINWVRQTPGKGLEWVSSISGLSDYISYGDSVKGRFTISRDNAKNSLYLQMNSLRADDTAVYYCARRGLGGEFLDVWGQGTTVTVSS", "chain 2": "DIVMTQSPDSLPVSLGERATINCKSSQSVLYNSNNKNYLAWYQQKPGQPPKLLIYWASTREAGVPDRFSGSGSGTDFTLTISSLQAEDVAVYYCQQYYSSPITFGQGTRLEIK"}, "B4": {"name": "BD56-954 (protein)", "chain 1": "QVQLVQSGAEVKKPGASVKVSCKASGYTFTSYYMHWVRQAPGQGLEWMGIIYPSGGGTSYAQKFQGRVTMIRDTSTSTVYMEVSSLTSEDTAVYYCAREGCSSTSCFDYWGQGTLVTVSS", "chain 2": "SDVLTQPPSVSVAPGQAARITCGTNNIGSKSVHWYQQKPGQAPVLVVYDDSDRPSGIPERFSGSNSGNTATLTISGVEAGDEADYYCQVWDGSSDHLYVFGTGTKVTVL"}, "B5": {"name": "BD56-971 (protein)", "chain 1": "EVQLVQSGAEVKKPGESLKISCKGSGYSFTSNWIGWVRQMPGKGLEWMGIIYPGDSDTRYSPSFQGQVTISADKSISTAYLQWSSLKASDTAMYYCARLGDIQTIDYWGQGTLVTVSS", "chain 2": "SSELTQDPAVSVALGQTVRITCQGDSLRSYYASWYQQKPGQAPVLVIYSQIRRPSGIPDRFSGSSSGSTASLTITGVQAEDEADYYCSYRDSSSNHLVFGGGTKLTVL"}, "B6": {"name": "BD56-963 (protein)", "chain 1": "QVQLVESGGGLVKPGGSLRLSCAASGFTFSDSYMGWIRQAPGKGLEWVSYISDSSSYSNYADSVKGRFTIFRDNAKNSLFLRMNSLRAEDTAVYYCARVHSVANYDRLTGYYRVGDAEYFQQWGQGTLVTVSS", "chain 2": "SYVLTQPPSVSVAPGKTATITCGGSNIGSKSVHWYQQKPGQAPVLVIYYNSDRPSVIPERFSGSNSGNTATLTISRVDAGDEADYYCQVWDSSTDHVVFGGGTRLTVL"}},
  "assay_in_all_cases": "pseudovirus neutralization IC50; higher = weaker neutralization",
  "key": {"[1]": {"target": "SARS-CoV-2 Omicron BA.1 spike pseudovirus", "experimental": "(§1)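 Single-round VSV luciferase pseudovirus mixed with antibody dilutions for 1 h and put on Huh-7 cells for about a day; IC50 from the dose curve.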"}, "[2]": {"target": "SARS-CoV-2 Omicron BA.2 spike pseudovirus", "experimental": "as §1"}, "[3]": {"target": "SARS-CoV-2 Omicron BA.2.75 spike pseudovirus", "experimental": "as §1"}, "[4]": {"target": "SARS-CoV-2 Omicron BA.5 spike pseudovirus", "experimental": "as §1"}, "[5]": {"target": "SARS-CoV-2 Omicron BQ.1.1 spike pseudovirus", "experimental": "as §1"}, "[6]": {"target": "SARS-CoV-2 Omicron XBB spike pseudovirus", "experimental": "as §1"}, "[7]": {"target": "SARS-CoV-2 early D614G spike pseudovirus", "experimental": "as §1"}},
  "note": "Human monoclonal antibodies against the spike receptor-binding domain (heavy:light variable regions). IC50 against pseudoviruses bearing the spike of naturally observed variants; lower = stronger; >10 µg/ml means not reached at the top dose. No active / inactive call. The stated detection limit is 0.0005 µg/ml; values near or below 0.001 µg/ml lie at the floor of the assay.",
  "data": [
    {"binder": "B1", "values": [
      {"measurement": "pseudovirus neutralization IC50", "setting": "[1]", "value": "> 10", "unit": "µg/mL"},
      {"measurement": "pseudovirus neutralization IC50", "setting": "[2]", "value": "> 10", "unit": "µg/mL"},
      {"measurement": "pseudovirus neutralization IC50", "setting": "[3]", "value": "> 10", "unit": "µg/mL"},
      {"measurement": "pseudovirus neutralization IC50", "setting": "[4]", "value": "> 10", "unit": "µg/mL"},
      {"measurement": "pseudovirus neutralization IC50", "setting": "[5]", "value": "> 10", "unit": "µg/mL"},
      {"measurement": "pseudovirus neutralization IC50", "setting": "[6]", "value": "> 10", "unit": "µg/mL"},
      {"measurement": "pseudovirus neutralization IC50", "setting": "[7]", "value": 0.0184, "unit": "µg/mL"}
    ]},
    {"binder": "B2", "values": [
      {"measurement": "pseudovirus neutralization IC50", "setting": "[1]", "value": 0.225, "unit": "µg/mL"},
      {"measurement": "pseudovirus neutralization IC50", "setting": "[2]", "value": 0.131, "unit": "µg/mL"},
      {"measurement": "pseudovirus neutralization IC50", "setting": "[3]", "value": 0.116, "unit": "µg/mL"},
      {"measurement": "pseudovirus neutralization IC50", "setting": "[4]", "value": "> 10", "unit": "µg/mL"},
      {"measurement": "pseudovirus neutralization IC50", "setting": "[5]", "value": "> 10", "unit": "µg/mL"},
      {"measurement": "pseudovirus neutralization IC50", "setting": "[6]", "value": 2.74, "unit": "µg/mL"},
      {"measurement": "pseudovirus neutralization IC50", "setting": "[7]", "value": 0.461, "unit": "µg/mL"}
    ]},
    {"binder": "B3", "values": [
      {"measurement": "pseudovirus neutralization IC50", "setting": "[1]", "value": 0.0209, "unit": "µg/mL"},
      {"measurement": "pseudovirus neutralization IC50", "setting": "[2]", "value": 0.00936, "unit": "µg/mL"},
      {"measurement": "pseudovirus neutralization IC50", "setting": "[3]", "value": 0.0136, "unit": "µg/mL"},
      {"measurement": "pseudovirus neutralization IC50", "setting": "[4]", "value": "> 10", "unit": "µg/mL"},
      {"measurement": "pseudovirus neutralization IC50", "setting": "[5]", "value": "> 10", "unit": "µg/mL"},
      {"measurement": "pseudovirus neutralization IC50", "setting": "[6]", "value": "> 10", "unit": "µg/mL"},
      {"measurement": "pseudovirus neutralization IC50", "setting": "[7]", "value": 0.00301, "unit": "µg/mL"}
    ]},
    {"binder": "B4", "values": [
      {"measurement": "pseudovirus neutralization IC50", "setting": "[1]", "value": "> 10", "unit": "µg/mL"},
      {"measurement": "pseudovirus neutralization IC50", "setting": "[2]", "value": "> 10", "unit": "µg/mL"},
      {"measurement": "pseudovirus neutralization IC50", "setting": "[3]", "value": "> 10", "unit": "µg/mL"},
      {"measurement": "pseudovirus neutralization IC50", "setting": "[4]", "value": "> 10", "unit": "µg/mL"},
      {"measurement": "pseudovirus neutralization IC50", "setting": "[5]", "value": "> 10", "unit": "µg/mL"},
      {"measurement": "pseudovirus neutralization IC50", "setting": "[6]", "value": "> 10", "unit": "µg/mL"},
      {"measurement": "pseudovirus neutralization IC50", "setting": "[7]", "value": "> 10", "unit": "µg/mL"}
    ]},
    {"binder": "B5", "values": [
      {"measurement": "pseudovirus neutralization IC50", "setting": "[1]", "value": 1.03, "unit": "µg/mL"},
      {"measurement": "pseudovirus neutralization IC50", "setting": "[2]", "value": 2.18, "unit": "µg/mL"},
      {"measurement": "pseudovirus neutralization IC50", "setting": "[3]", "value": 2.05, "unit": "µg/mL"},
      {"measurement": "pseudovirus neutralization IC50", "setting": "[4]", "value": 1.09, "unit": "µg/mL"},
      {"measurement": "pseudovirus neutralization IC50", "setting": "[5]", "value": 0.752, "unit": "µg/mL"},
      {"measurement": "pseudovirus neutralization IC50", "setting": "[6]", "value": 1.27, "unit": "µg/mL"},
      {"measurement": "pseudovirus neutralization IC50", "setting": "[7]", "value": 3.6, "unit": "µg/mL"}
    ]},
    {"binder": "B6", "values": [
      {"measurement": "pseudovirus neutralization IC50", "setting": "[1]", "value": 0.143, "unit": "µg/mL"},
      {"measurement": "pseudovirus neutralization IC50", "setting": "[2]", "value": 0.207, "unit": "µg/mL"},
      {"measurement": "pseudovirus neutralization IC50", "setting": "[3]", "value": 0.146, "unit": "µg/mL"},
      {"measurement": "pseudovirus neutralization IC50", "setting": "[4]", "value": 3.5, "unit": "µg/mL"},
      {"measurement": "pseudovirus neutralization IC50", "setting": "[5]", "value": "> 10", "unit": "µg/mL"},
      {"measurement": "pseudovirus neutralization IC50", "setting": "[6]", "value": 1.5, "unit": "µg/mL"},
      {"measurement": "pseudovirus neutralization IC50", "setting": "[7]", "value": 0.00734, "unit": "µg/mL"}
    ]}
  ]
}
